Measurements reported in patent CN117756932A (INST MILITARY MEDICINE ACADEMY MILITARY SCIENCES PLA, dated 2024).

Molecular target: 鼠疫菌LcrV重组蛋白 (鼠疫耶尔森氏菌 (Yersinia pestis))

B1: 重链抗体LcrVX19-R1-Fc (Fc fusion)
heavy: QLQLVESGGGSVQAGGSLRLSCQATGYIIEVGFMGWFRQTPGKEREGVAAISAASGATYYIDSVKGRFTISRDKAKNTMYLQMDSPRAEDTAMYYCAAEPTPLPDRNWWFLPRAYNVWGQGTLVTVSSAS[human IgG1 Fc with changes not spelt out]
Kd: 0.561 nM

B2: 重链抗体LcrVX19-R2-Fc (Fc fusion)
heavy: EVQLVESGGGSVQAGGSLRLSCQATGYIIEVGFMGWFRQTPGKEREGVAAISAASGATYYIDSVKGRFTISRDKAKNTMYLQMDSPRAEDTAMYYCAAEPTPLPDRNWWFLPRAYNVWGQGTLVTVSSAS[human IgG1 Fc with changes not spelt out]
Kd: 0.661 nM

B3: 重链抗体LcrVX19-R3-Fc (Fc fusion)
heavy: EVQLVESGGGSVQAGGSLRLSCQATGYIIEVGFMGWFRQTPGKEREGVAAISAASGATYYIDSVKGRFTISRDNAKNTMYLQMDSLRAEDTAMYYCAAEPTPLPDRNWWFLPRAYNVWGQGTLVTVSSAS[human IgG1 Fc with changes not spelt out]
Kd: 0.848 nM

B4: 重链抗体LcrVX19-Fc (Fc fusion)
heavy: QLQLVESGGGSVQAGGSLRLSCQATGYIIEVGFMGWFRQTPGKEREGVAAISAASGATYYIDSVKGRFTISRDKAKNTMYLQMDSPKPEDTAMYYCAAEPTPLPDRNWWFLPRAYNVWGQGTQVTVSSAS[human IgG1 Fc with changes not spelt out]
EC50: 0.0109 nM | Kd: 0.612 nM
